Data taken from publication PMC12658632, “Discovery of Sesamolin as a Potential Anti-Helicobacter pylori Agent by Virtual Screening against the Essential Response Regulator HsrA with In Vitro Evaluation” (ACS Omega, 2025).
The exact form of at least one protein or probe is not confirmed. A weaker result is weaker than the reference pair of the same experiment. Where a protein sequence is shown, tags need not be part of it.

Target: T1, HsrA (UniProt O25684)
T1 sequence (looked up, limits assumed): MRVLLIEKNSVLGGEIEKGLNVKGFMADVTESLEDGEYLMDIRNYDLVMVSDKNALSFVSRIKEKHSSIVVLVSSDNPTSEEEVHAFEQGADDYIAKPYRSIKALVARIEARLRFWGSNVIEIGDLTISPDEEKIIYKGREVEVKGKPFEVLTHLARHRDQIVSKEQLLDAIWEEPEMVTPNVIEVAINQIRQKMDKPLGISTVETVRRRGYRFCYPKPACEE
Experiment: EMSA
Conditions: weak inhibition at 0.05 mM, stronger at 0.1-1 mM, EMSA binding buffer (Beyotime GS005, composition and pH not stated), 25 uL, 4 uM HsrA, 50 ng each DNA, 25 C 30 min, 5% native PAGE, 0.5x TBE, recombinant protein, label: none (NA-Red stain), probe letters rebuilt from the primers and the genome

“GCCAAAACGCCTAAAGCCATGATAACCTTTTTCATCGTTTGTCTCCTCTACTTATCAAAATGATCTTAAAATGATACAATTACAAGTTTAAGTTTTGCTTAAAAATGAAGTGAAAATGAGAGAAATAAATATGATTTTATACATTCATATCCCCTTTTGTGAAAATAAATGCGGTTATTGCGCTTTCAA (double strand) [hp1227 promoter probe]”: binds more weakly (coptisine (6) 0.05-1 mM); binds more weakly (sesamolin (3) 0.05-1 mM).
